Our source for the IC50 values is ChEMBL document CHEMBL2439951, “Discovery of N-(benzo[1,2,3]triazol-1-yl)-N-(benzyl)acetamido)phenyl) carboxamides as severe acute respiratory syndrome coronavirus (SARS-CoV) 3CLpro inhibitors: identification of ML300 and noncovalent nanomolar inhibitors with an induced-fit binding” (Bioorg Med Chem Lett, 2013).

For this experiment, the target named is Replicase polyprotein 1a (Severe acute respiratory syndrome-related coronavirus, UniProt P0C6U8). The experiment can be described thus: Inhibition of SARS coronavirus 3CLpro.

The compound `COc1ncc(-c2ccc(N(Cc3ccsc3)C(=O)Cn3nnc4ccccc43)cc2)cn1` had a 50% inhibitory concentration (IC50) of 12.5 µM.
Consider `CC(C)COC(=O)Nc1ccc(N(Cc2ccsc2)C(=O)Cn2nnc3ccccc32)cc1`, for which the midpoint of inhibition, the IC50, lay at 10.3 µM.
